Assay results from PubChem BioAssay AID504406 (Broad Institute, 2011).
Only a part is listed here, and it is no random draw. The source made the active and inactive calls. Rule as the data show it: active = inhibition above about 10% (passing the limit was not always enough); inconclusive = no clear call, values can overlap the other calls.

Sequences of proteins named here, by UniProt entry; tags and fusion partners are left off. A change or cut given only in a name is not applied to a line headed by its entry.
UniProt P9WIQ1: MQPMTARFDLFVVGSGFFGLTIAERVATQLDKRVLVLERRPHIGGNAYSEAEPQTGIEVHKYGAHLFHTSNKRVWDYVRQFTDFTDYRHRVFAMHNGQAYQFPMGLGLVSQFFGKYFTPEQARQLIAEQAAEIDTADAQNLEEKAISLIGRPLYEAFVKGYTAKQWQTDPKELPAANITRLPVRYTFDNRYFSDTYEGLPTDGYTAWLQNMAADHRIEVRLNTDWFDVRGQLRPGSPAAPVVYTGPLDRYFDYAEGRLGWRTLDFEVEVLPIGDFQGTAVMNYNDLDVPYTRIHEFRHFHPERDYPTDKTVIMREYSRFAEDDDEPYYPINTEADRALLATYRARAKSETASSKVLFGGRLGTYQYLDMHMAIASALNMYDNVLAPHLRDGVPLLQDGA

molecular target: UDP-galactopyranose mutase (Mycobacterium tuberculosis (strain ATCC 25618 / H37Rv)) (UniProt P9WIQ1); experiment: blockers of Mtb UDP-galactopyranose mutase – biochemical, fluorescence polarization, single point, primary screen (AID 504406); settings: purified UGM, fluorescence polarization probe displacement; at 10 µM; active compounds read high

Row | SMILES | inhibition
1 | CC(C)/C=N\N=C(\N)N[N+](=O)[O-] | inactive: -1.72%
2 | CN(C(=O)Cc1ccc(Cl)c(Cl)c1)[C@@H]1CCCC[C@H]1N1CCCC1 | inactive: -2.3%
3 | CC1(CBr)Cn2c(nc3ccccc3c2=O)S1 (stereo not given) | inactive: -0.719%
4 | O=[As](O)(c1ccccc1Br)c1ccccc1Br | inactive: -0.198%
5 | CCOP(=O)(NC(=NC(C)c1ccccc1)NC(C)c1ccccc1)OCC (stereo not given) | inactive: -0.0484%
6 | O=P1(Nc2ccccn2)COc2ccccc2OC1 | inactive: 1.47%
7 | CCC1=CC2Cc3nc4ccc(Cl)cc4c(N)c3C(C1)C2 (stereo not given) | inactive: 0.227%
8 | CN(CCCl)Cc1cc(Cl)c(NC2=NCCN2)c(Cl)c1 | inactive: -2.67%
9 | CCOP(=O)(Nc1ccc(C)cn1)OCC | inactive: 1.43%
10 | CC(C)(C)C(=O)NC(Sc1ncccn1)C(Cl)(Cl)Cl (stereo not given) | inactive: -2.42%
11 | Clc1n[nH]nc1-c1nn[nH][15n]1 | inactive: 1.33%
12 | O=P1(Nc2ncccn2)COc2ccccc2OC1 | inactive: 0.693%
13 | Nc1cccc([As](=O)(O)c2ccccc2)c1 | inactive: -0.66%
14 | O=P1(Nc2ccc(Br)cn2)COc2ccccc2OC1 | inactive: 0.659%
15 | NS(=O)(=O)c1cccc(NC(=O)COC(=O)C(O)(c2ccccc2)c2ccccc2)c1 | inactive: 1.62%
16 | O=[As](O)(c1cccs1)c1cccs1 | inactive: -2.08%
17 | Cc1ccc(OCC(=O)OC2CN3CCC2CC3)cc1 (stereo not given) | inactive: 3.8%
18 | CC1CCC(C(C)C)C(OP(=O)(Nc2ccccn2)c2ccccc2)C1 (stereo not given) | inactive: 0.39%
19 | Cc1ccc(C(=O)OC2CN3CCC2CC3)cc1 (stereo not given) | inactive: -0.165%
20 | Cc1nn(-c2ccccc2)c2c1P(=O)(N1CCOCC1)N(C)C(c1ccccc1)=N2 (stereo not given) | inactive: -0.917%
21 | CN(C)C1(CNC(=O)c2ccc(S(C)(=O)=O)cc2)CCCCC1 | inactive: -0.823%
22 | O=C(/C=C/c1ccccc1)OC1CN2CCC1CC2 (stereo not given) | inactive: -0.72%
23 | CCOC(=O)Nc1cccc([As](=O)(O)O)c1 | inactive: 0.298%
24 | O=P(Nc1ccccn1)(c1cccc2ccccc12)c1cccc2ccccc12 | inactive: -1.32%
25 | Cc1cc(SC(NC=O)C(Cl)(Cl)Cl)ncn1 (stereo not given) | inactive: -0.653%

Row | SMILES | inhibition
26 | O=[N+]([O-])c1ccc(Nc2ccc(Oc3ccc([N+](=O)[O-])cc3[N+](=O)[O-])cc2)c([N+](=O)[O-])c1 | inactive: -2.38%
27 | CCOC(=O)Nc1ccc([As](=O)(O)O)c(O)c1 | inactive: 1.67%
28 | Cc1cc(SC(NC(=O)c2ccccc2)C(Cl)(Cl)Cl)nc(C(C)C)n1 (stereo not given) | inactive: 1.3%
29 | O=C(OC1CN2CCC1CC2)c1cccc([N+](=O)[O-])c1 (stereo not given) | inactive: 0.0985%
30 | CCOC(=O)c1ccc(NC(=O)C(C)(CCl)SC)cc1 (stereo not given) | inactive: -4%
31 | CCC(C)N(CC(C)C)C(=S)SC(NC(C)=O)C(Cl)(Cl)Cl (stereo not given) | inactive: -0.95%
32 | COP1(=S)c2c(C)nn(CCC#N)c2N=C(c2ccc(F)cc2)N1C (stereo not given) | inactive: -1.39%
33 | O=C(Nc1ccncc1[N+](=O)[O-])c1ccc([N+](=O)[O-])cc1[N+](=O)[O-] | inactive: 1.09%
34 | O=C(COc1ccccc1)OC1CN2CCC1CC2 (stereo not given) | inactive: 0.679%
35 | COc1ccc(N/C(=N/P(=O)(N2CCOCC2)N2CCOCC2)N2CCOCC2)cc1 | inactive: -1.19%
36 | Cc1c2c(nc3ccccc13)SC(C(Cl)Cl)C2 (stereo not given) | inactive: 2.1%
37 | Cc1cc(=O)[nH]c(N[N+](=O)[O-])n1 | inactive: 1.62%
38 | O=C(OC1CN2CCC1CC2)C12CC3CC(CC(C3)C1)C2 (stereo not given) | inactive: -1.44%
39 | COc1cc(I)ccc1[As](=O)(O)O | inactive: 3.59%
40 | COc1ccc2nc(NP(=O)(c3ccccc3)c3ccccc3)sc2c1 | inactive: -0.264%
41 | ClCCSc1nnc(-c2cccnc2)o1 | inactive: -1.37%
42 | CC(C)c1ccc(OP(=O)(Nc2ccccn2)Oc2ccccc2F)cc1 (stereo not given) | inactive: 0.611%
43 | O=[N+]([O-])c1cc([N+](=O)[O-])c(-c2ccn[nH]2)s1 | inactive: -0.444%
44 | CCN(CC)C(=S)SC(NC=O)C(Cl)(Cl)Cl (stereo not given) | inactive: 2.84%
45 | CC(C)NC(=O)NP(=O)(Oc1ccccc1)Oc1ccccc1 | inactive: 0.226%
46 | COc1cc(C(=O)NCC2(N3CCOCC3)CCCCC2)ccc1OCC(C)C | inactive: -2.28%
47 | O=[As](O)(c1ccc(O)cc1)c1ccccc1O | inactive: -1.31%
48 | C[As](=O)(O)c1cccc(C(=O)O)c1 | inactive: 2.11%
49 | Cc1ccc(OP(=O)(Nc2ccc([N+](=O)[O-])cn2)Oc2ccc(C)cc2)cc1 | inactive: -1.46%
50 | Cc1ccc2nc3c(c(C)c2c1)CC(C(Cl)Cl)S3 (stereo not given) | inactive: 2.74%
